Results of single-concentration screens

The values are deposited in ChEMBL (CHEMBL3988442, “University of Dundee, Small-Polar-MMV Screening Library” (2021)).

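Whole-cell growth test on Mycobacterium tuberculosis, read after 4 days in a medium based on cholesterol and the lipid DPPC; the read-out is not stated. Tested at 500 µM. The record gives no direction; compounds that gave an IC50 in retests scored well above the rest, so higher reads as more growth inhibition. Size under these conditions: about 18,000 compounds, about 900 of them at 50% or above in at least one test.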

Values are the deposited “Percent Effect”, in %.
The controls that fix the scale are not given in the record; negative values are as filed.
The entries come from a sample that favours strong results.

* Cc1cc(N2CC(C)OC(C)(C)C2)n2ncnc2n1 (stereo unspecified) : 1.45%
* O=C(c1cn2ccsc2n1)N1CC=CC1CO (stereo unspecified) : -5.24%
* CC(N)c1noc(-c2ccc(Cl)cc2)n1 (stereo unspecified) : 60.38%
* CC(c1nc(C2CC2)no1)N1CCn2ccnc2C1 (stereo unspecified) : 8.326%
* CSCc1ccc(C(=O)NCCc2ncnn2C)o1 : 9.263%
* NC(=O)CN1CCCC1CCc1ccccc1 (stereo unspecified) : 16.83%
* O=C(CNCC1CC1)Nc1ccc(F)cc1 : 34.32%
* CC1c2ccsc2CCN1CCS(C)(=O)=O (stereo unspecified) : 43.11%
* CC(C)c1ccccc1OCC(O)CN(C)CCO (stereo unspecified) : 61.34%
* O=C(NCCSc1ccccn1)C1CCCCO1 (stereo unspecified) : 36.59%
* CN(C)S(=O)(=O)NCCNc1ccc2ccccc2n1 : 52.74%
* CCCn1ccnc1CCCNC : 7.761%
* Cc1cnn(CCNc2ccc(F)cn2)c1 : 46.06%
* CC(C)(C)c1nnc(CN)s1 : 13.98%
* Cn1ccc(NC(=O)CN2CCC[C@@H]2C(N)=O)n1 : 0.1837%
* NCC(NC(=O)c1ccccc1C(F)(F)F)C1CC1 (stereo unspecified) : -16.07%
* N#Cc1cccc(CSc2nnc(N)s2)c1 : 35.77%
* COc1cccc(C(N)c2cccnc2)c1 (stereo unspecified) : 8.738%
* CNC1CCN(C(=O)c2ccsc2)CC1 : -13.94%
* NCc1ccncc1OCC(F)(F)F : 70.97%
* Cn1ccc2ccnc(N3CCC(C(N)=O)CC3)c21 : 0.4883%
* NCC1CCc2ccccc21 (stereo unspecified) : 14.27%
* CC(C)CC(NC(N)=O)C(=O)Nc1cc(F)cc(F)c1 (stereo unspecified) : 51.95%
* OCCCSc1nnc(C2CC2)n1C1CC1 : 1.861%
* NCC1CCN(C(=O)CCc2ccc(F)cc2)CC1 : 15.08%
* COc1cc(NC(=O)N(C)CCN(C)C)ccc1F : 7.394%
* Cc1occc1S(=O)(=O)Cc1nc(C2CC2)n[nH]1 : -1.792%
* COC1CCN(Cc2cccc(OCC(N)=O)c2)C1 (stereo unspecified) : 11.44%
* CCOC(=O)N1CCN(Cc2nc(C3CC3)no2)CC1 : 88.9%
* CC(C)Oc1cccc(C(=O)NC2CCN(C)CC2)c1 : 8.152%
* COc1ccccc1OC(C)CN (stereo unspecified) : 85.77%
* O=C1CCN(C(=O)c2sccc2Br)CCN1 : -3.731%
* CN(Cc1ccc(Cl)s1)CC1CCS(=O)(=O)C1 (stereo unspecified) : 33.03%
* COc1ccc(CCN)c(OC)c1OC : 92.22%
* OC1CCN(Cc2ccccc2F)CC1 : 2.448%
* Nc1nc(-c2ccco2)nn1C(=O)c1cccs1 : -4.8%
* Cc1ccc(NC(=O)CN2CCCCC2=O)c(C)c1O : -3.221%
* CN1C(=O)C(N)c2cc(Br)ccc21 (stereo unspecified) : -6.53%
* O=C(Nc1cncc(Br)c1O)c1csnn1 : 4.061%
* CN1CCC(CNC(=O)Nc2ccccc2F)CC1 : -9.189%
* CC(=O)NCCS(=O)(=O)N1CCc2ccccc21 : 3.504%
* CC(C)C(O)CCNS(=O)(=O)c1ccccc1 (stereo unspecified) : 8.189%
* CCS(=O)(=O)NCC(N)c1ccc(C(C)C)cc1 (stereo unspecified) : 67.41%
* CCN(CCn1cccn1)C(=O)c1cc(=O)cc(C)o1 : -8.841%
* CC1CCN(C(=O)CNS(=O)(=O)c2ccccc2)CC1 : 18.9%
* CN(Cc1ccc(S(C)(=O)=O)cc1)Cc1nccn1C : 5.053%
* CCc1nnsc1C(=O)NC(C)CN1CCOCC1 (stereo unspecified) : -8.528%
* Cc1cccc(OCC(O)CNc2ncccc2F)c1 (stereo unspecified) : 71.35%
* CCn1cc(Br)c(=O)c(NC(=O)CC(F)(F)F)c1 : 1.564%
* NC(=O)c1cncnc1N : 2.445%
* C=C(Br)CNC(=O)Cc1c(F)cccc1F : 6.573%
* Cc1cc(N2CCS(=O)(=O)CC2)nc2ccccc12 : -1.277%
* Cn1c(SCCCO)nnc1-c1ccccc1F : 53.89%
* CC(N)c1ccc(Br)cc1OCCO (stereo unspecified) : 13.3%
* OCC1(CNCc2ccccc2)CC1 : -10.43%
* CNc1cc(CN(C)Cc2ccco2)ccn1 : 18.66%
* CC1CN(CCC(=O)NC(N)=O)CCO1 (stereo unspecified) : 108.6%

5 of the entries, repeated:

{"smiles": "CSCc1ccc(C(=O)NCCc2ncnn2C)o1", "effect": 9.263}
{"smiles": "CCOC(=O)N1CCN(Cc2nc(C3CC3)no2)CC1", "effect": 88.9}
{"smiles": "CN(Cc1ccc(Cl)s1)CC1CCS(=O)(=O)C1", "stereo": "stereo unspecified", "effect": 33.03}
{"smiles": "CCN(CCn1cccn1)C(=O)c1cc(=O)cc(C)o1", "effect": -8.841}
{"smiles": "COc1ccc(CCN)c(OC)c1OC", "effect": 92.22}